# According to patent US20230174624A1, “FERRITIN VARIANTS WITH INCREASED STABILITY, COMPLEXATION ABILITY AND TRANSFERRIN RECEPTOR AFFINITY” (CELLIS AG, priority 2020, published 2023):
# Assay: Native PAGE gel after doxorubicin encapsulation and purification
# Format: physicochemical
# Conditions: ferritin-dox after encapsulation, concentrated on 10 or 100 kDa Amicon
# From the text: Native PAGE gel has been performed in order to check the size of the protein after encapsulation and purification. […] A greater degree of aggregation adversely affects the loading efficiency and protein recovery after loading with doxorubicin (FIG. 3).
substance,measurement,setting,value
WT: human wild-type heavy chain ferritin (SEQ ID NO. 1) [reference compound],forms on native gel (24-mers versus aggregates),listed as wild type ferritin,"mainly forms of double glued frames, aggregates of cages and larger forms of aggregates"
same,forms on native gel (24-mers versus aggregates),listed as wild type protein,"shows a heterogeneity of forms, in addition to cages it contains aggregates of cages and larger forms of aggregates"
